Test results published in article PMC5705984, “Membrane-Active Properties of an Amphitropic Peptide from the CyaA Toxin Translocation Region” (Toxins, 2017).

Test: Synchrotron radiation circular dichroism (SRCD), helical content estimated with BestSel
Assay type: physicochemical
Conditions: 25 °C; for % helix in solution: peptide 100 μM in buffer A (20 mM HEPES, 150 mM NaCl, pH 7.4), BestSel deconvolution; for % helix in TFE 20% / % helix in DOPC / % helix in DOPC/DOPG 8 :2 / % helix in POPC: peptide 100 μM, BestSel; for % helix in TFE 20%: 20% trifluoroethanol; for % helix in DOPC: DOPC SUVs 2 mM lipids; for % helix in DOPC/DOPG 8 :2: DOPC/DOPG 8:2 SUVs 2 mM lipids; for % helix in POPC: POPC SUVs 2 mM lipids

SMILES | % helix in solution [%] | % helix in TFE 20% [%] | % helix in DOPC [%] | % helix in DOPC/DOPG 8 :2 [%] | % helix in POPC [%]
CC[C@H](C)[C@H](NC(=O)[C@H](C)NC(=O)[C@H](Cc1c[nH]cn1)NC(=O)[C@@H](NC(=O)[C@H](CC(C)C)NC(=O)[C@H](CCC(=O)O)NC(=O)[C@H](CCC(N)=O)NC(=O)[C@H](C)NC(=O)[C@H](C)NC(=O)[C@H](C)NC(=O)[C@@H](NC(=O)[C@H](C)NC(=O)[C@H](CCC(N)=O)NC(=O)[C@H](C)NC(=O)CNC(=O)[C@H](CCC(N)=O)NC(=O)[C@H](CC(C)C)NC(=O)[C@H](C)NC(=O)[C@H](CCC(=O)O)NC(=O)[C@H](CCC(N)=O)NC(=O)CNC(=O)[C@H](Cc1c[nH]c2ccccc12)NC(=O)[C@H](Cc1c[nH]cn1)NC(=O)[C@H](C)NC(=O)[C@H](CO)NC(=O)[C@H](C)NC(C)=O)C(C)C)C(C)C)C(=O)N[C@@H](C)C(=O)N[C@@H](CC(C)C)C(=O)N[C@@H](CCSC)C(=O)N[C@H](C(=O)N[C@@H](CCC(N)=O)C(N)=O)[C@@H](C)O [P454 R12E] | 6 ± 1 | 55 ± 3 | 13 ± 1 | 17 ± 2 | 12 ± 3
CC[C@H](C)[C@H](NC(=O)[C@H](C)NC(=O)[C@H](Cc1c[nH]cn1)NC(=O)[C@@H](NC(=O)[C@H](CC(C)C)NC(=O)[C@H](CCCNC(=N)N)NC(=O)[C@H](CCC(N)=O)NC(=O)[C@H](C)NC(=O)[C@H](C)NC(=O)[C@H](C)NC(=O)[C@@H](NC(=O)[C@H](C)NC(=O)[C@H](CCC(N)=O)NC(=O)[C@H](C)NC(=O)CNC(=O)[C@H](CCC(N)=O)NC(=O)[C@H](CC(C)C)NC(=O)[C@H](C)NC(=O)[C@H](CCCNC(=N)N)NC(=O)[C@H](CCC(N)=O)NC(=O)CNC(=O)[C@H](Cc1c[nH]c2ccccc12)NC(=O)[C@H](Cc1c[nH]cn1)NC(=O)[C@H](C)NC(=O)[C@H](CO)NC(=O)[C@H](C)NC(C)=O)C(C)C)C(C)C)C(=O)N[C@@H](C)C(=O)N[C@@H](CC(C)C)C(=O)N[C@@H](CCSC)C(=O)N[C@H](C(=O)N[C@@H](CCC(N)=O)C(N)=O)[C@@H](C)O [Peptide P454] | 17 ± 2 | 60 ± 2 | 45 ± 5 | 62 ± 1 | 42 ± 3
CC[C@H](C)[C@H](NC(=O)[C@H](C)NC(=O)[C@H](Cc1c[nH]cn1)NC(=O)[C@@H](NC(=O)[C@H](CC(C)C)NC(=O)[C@H](CCCNC(=N)N)NC(=O)[C@H](CCC(N)=O)NC(=O)[C@H](C)NC(=O)[C@H](C)NC(=O)[C@H](C)NC(=O)[C@@H](NC(=O)[C@H](C)NC(=O)[C@H](CCC(N)=O)NC(=O)[C@H](C)NC(=O)CNC(=O)[C@H](CCC(N)=O)NC(=O)[C@H](CC(C)C)NC(=O)[C@H](C)NC(=O)[C@H](CCC(N)=O)NC(=O)[C@H](CCC(N)=O)NC(=O)CNC(=O)[C@H](Cc1c[nH]c2ccccc12)NC(=O)[C@H](Cc1c[nH]cn1)NC(=O)[C@H](C)NC(=O)[C@H](CO)NC(=O)[C@H](C)NC(C)=O)C(C)C)C(C)C)C(=O)N[C@@H](C)C(=O)N[C@@H](CC(C)C)C(=O)N[C@@H](CCSC)C(=O)N[C@H](C(=O)N[C@@H](CCC(N)=O)C(N)=O)[C@@H](C)O [P454 R1Q] | 13 ± 1 | 41 ± 3 | 27 ± 1 | 38 ± 2 | 27 ± 1
CC[C@H](C)[C@H](NC(=O)[C@H](C)NC(=O)[C@H](Cc1c[nH]cn1)NC(=O)[C@@H](NC(=O)[C@H](CC(C)C)NC(=O)[C@H](CCC(N)=O)NC(=O)[C@H](CCC(N)=O)NC(=O)[C@H](C)NC(=O)[C@H](C)NC(=O)[C@H](C)NC(=O)[C@@H](NC(=O)[C@H](C)NC(=O)[C@H](CCC(N)=O)NC(=O)[C@H](C)NC(=O)CNC(=O)[C@H](CCC(N)=O)NC(=O)[C@H](CC(C)C)NC(=O)[C@H](C)NC(=O)[C@H](CCC(N)=O)NC(=O)[C@H](CCC(N)=O)NC(=O)CNC(=O)[C@H](Cc1c[nH]c2ccccc12)NC(=O)[C@H](Cc1c[nH]cn1)NC(=O)[C@H](C)NC(=O)[C@H](CO)NC(=O)[C@H](C)NC(C)=O)C(C)C)C(C)C)C(=O)N[C@@H](C)C(=O)N[C@@H](CC(C)C)C(=O)N[C@@H](CCSC)C(=O)N[C@H](C(=O)N[C@@H](CCC(N)=O)C(N)=O)[C@@H](C)O [P454 R12Q] | 8 ± 4 | 50 ± 2 | 26 ± 3 | 33 ± 3 | 27 ± 2
CC[C@H](C)[C@H](NC(=O)[C@H](C)NC(=O)[C@H](Cc1c[nH]cn1)NC(=O)[C@@H](NC(=O)[C@H](CC(C)C)NC(=O)[C@H](CCC(N)=O)NC(=O)[C@H](CCC(N)=O)NC(=O)[C@H](C)NC(=O)[C@H](C)NC(=O)[C@H](C)NC(=O)[C@@H](NC(=O)[C@H](C)NC(=O)[C@H](CCC(N)=O)NC(=O)[C@H](C)NC(=O)CNC(=O)[C@H](CCC(N)=O)NC(=O)[C@H](CC(C)C)NC(=O)[C@H](C)NC(=O)[C@H](CCCNC(=N)N)NC(=O)[C@H](CCC(N)=O)NC(=O)CNC(=O)[C@H](Cc1c[nH]c2ccccc12)NC(=O)[C@H](Cc1c[nH]cn1)NC(=O)[C@H](C)NC(=O)[C@H](CO)NC(=O)[C@H](C)NC(C)=O)C(C)C)C(C)C)C(=O)N[C@@H](C)C(=O)N[C@@H](CC(C)C)C(=O)N[C@@H](CCSC)C(=O)N[C@H](C(=O)N[C@@H](CCC(N)=O)C(N)=O)[C@@H](C)O [P454 R2Q] | 8 ± 3 | 45 ± 3 | 16 ± 1 | 27 ± 2 | 18 ± 1
CC[C@H](C)[C@H](NC(=O)[C@H](C)NC(=O)[C@H](Cc1c[nH]cn1)NC(=O)[C@@H](NC(=O)[C@H](CC(C)C)NC(=O)[C@H](CCCCN)NC(=O)[C@H](CCC(N)=O)NC(=O)[C@H](C)NC(=O)[C@H](C)NC(=O)[C@H](C)NC(=O)[C@@H](NC(=O)[C@H](C)NC(=O)[C@H](CCC(N)=O)NC(=O)[C@H](C)NC(=O)CNC(=O)[C@H](CCC(N)=O)NC(=O)[C@H](CC(C)C)NC(=O)[C@H](C)NC(=O)[C@H](CCCCN)NC(=O)[C@H](CCC(N)=O)NC(=O)CNC(=O)[C@H](Cc1c[nH]c2ccccc12)NC(=O)[C@H](Cc1c[nH]cn1)NC(=O)[C@H](C)NC(=O)[C@H](CO)NC(=O)[C@H](C)NC(C)=O)C(C)C)C(C)C)C(=O)N[C@@H](C)C(=O)N[C@@H](CC(C)C)C(=O)N[C@@H](CCSC)C(=O)N[C@H](C(=O)N[C@@H](CCC(N)=O)C(N)=O)[C@@H](C)O [P454 R12K] | 13 ± 2 | 72 ± 1 | 38 ± 2 | 53 ± 3 | 38 ± 1
CC[C@H](C)[C@H](NC(=O)[C@H](C)NC(=O)[C@H](Cc1c[nH]cn1)NC(=O)[C@@H](NC(=O)[C@H](CC(C)C)NC(=O)[C@H](C)NC(=O)[C@H](CCC(N)=O)NC(=O)[C@H](C)NC(=O)[C@H](C)NC(=O)[C@H](C)NC(=O)[C@@H](NC(=O)[C@H](C)NC(=O)[C@H](CCC(N)=O)NC(=O)[C@H](C)NC(=O)CNC(=O)[C@H](CCC(N)=O)NC(=O)[C@H](CC(C)C)NC(=O)[C@H](C)NC(=O)[C@H](C)NC(=O)[C@H](CCC(N)=O)NC(=O)CNC(=O)[C@H](Cc1c[nH]c2ccccc12)NC(=O)[C@H](Cc1c[nH]cn1)NC(=O)[C@H](C)NC(=O)[C@H](CO)NC(=O)[C@H](C)NC(C)=O)C(C)C)C(C)C)C(=O)N[C@@H](C)C(=O)N[C@@H](CC(C)C)C(=O)N[C@@H](CCSC)C(=O)N[C@H](C(=O)N[C@@H](CCC(N)=O)C(N)=O)[C@@H](C)O [P454 R12A] | 23 ± 2 | 61 ± 2 | 49 ± 4 | 52 ± 2 | 50 ± 3
